{"source": "patent WO2021237516A1", "about": "“Sars-cov-2 antibody and application thereof” (dated 2021)"}
{"biological_target": "T1, SARS-CoV-2 S1 (SARS-CoV-2, UniProt P0DTC2 16-685)", "T1 construct": "domain: S1", "assay": "Octet Red BLI, antibody on AHC sensor, 100 nM SARS-CoV-2 S1"}
{"binder": "Ab2001.02 (antibody, V domains shown) VH: EVQLVESGGGLVQPGGSLRLSCAASGFTVSSNYMSWVRQAPGKGLEWVSAISGSGGSTYYADSVKGRFTISRDNSKNTLYLQMNSLRAEDTAVYYCAREVSDAFDIWGQGTMVTVSS VL: DIQMTQSPSSLSASVGDRVTITCRASQGISNSLAWYQQKPGKAPKLLLYAASRLESGVPSRFSGSGSGTDYTLTISSLQPEDFATYYCQQSYSTPSTFGQGTKVEIK", "binding result": "binds"}
{"binder": "Ab2001.14 (antibody, V domains shown) VH: EVQLVESGGGLVQPGGSLRLSCAASGFTFSNYDMFWVRQAPGKGLEWVSAIGPAGDTYYADSVKGRFTISRDNSKNTLYLQMNSLRAEDTAVYYCTRGGDAPMVGWHFDVWGRGTLVTVSS VL: not shown", "binding result": "binds"}
{"binder": "Ab2001.24 (antibody, V domains shown) VH: EVQLVESGGGLVQPGGSLRLSCAASGFTFSNYDMFWVRQATGKGLEWVSAIGPAGDTYYADSVKGRFTISRDNAKNSLYLQMNSLRAEDTAVYYCTRGGVAPMAGWHFDLWGRGTLVTVSS VL: not shown", "binding result": "binds"}
{"binder": "Ab2001.25 (antibody, V domains shown) VH: EVQLVESGGGLVQPGGSLRLSCAASGFTFSNYDMFWVRQAPGKGLEWVSAIGPAGDTYYADSVKGRFTISRDNSKNTLYLQMNSLRAEDTAVYYCARGGIAAMVGWHFDLWGRGTLVTVSS VL: not shown", "binding result": "binds"}
{"binder": "Ab2001.03 (antibody, V domains shown) VH: EVQLVESGGGLVQPGGSLRLSCAASGFTVSSNYMSWVRQAPGKGLEWVSVIYSGGSTYYADSVKGRFTISRDNSKNTLYLQMNSLRAEDTAVYYCAREVSDAFDIWGQGTMVTVSS VL: DIQMTQSPSSLSASVGDRVTITCRASQGISNSLAWYQQKPGKAPKLLLYAASRLESGVPSRFSGSGSGTDYTLTISSLQPEDFATYYCQQSYSTPSTFGQGTKVEIK", "binding result": "binds"}
{"binder": "Ab2001.11 (antibody, V domains shown) VH: EVQLVESGGGLVQPGGSLRLSCAASGFSFSNSDMHWVRQATGKGLEWVSAIGDSGDTYYSDSVKGRFTISRENAKSSLYLQMNSLRAEDTAVYYCARAANWGWDWYFDLWGRGTLVTVSS VL: not shown", "binding result": "binds"}
{"binder": "Ab2001.12 (antibody, V domains shown) VH: EVQLVETGGGLIQPGGSLRLSCAASGFTVSSNYMSWVRQAPGKGLEWVSVIYSGGSTYYADSVKGRFTISRDNSKNTLYLQMNSLRAEDTAVYYCARDAGPYGMDVWGQGTTVTVSS VL: not shown", "binding result": "binds"}
